# Laboratory results from PubChem BioAssay (NCATS).
# The list shows a part of the results, in another mix than the full data. Results filed as inconclusive are left out. Active and inactive are the calls of the source. Calls come from the whole dose curve; as a rule, active = well fitted inhibition curve with a large enough effect; inconclusive = small, poorly fitted or top-dose-only effect; inactive = flat fitted curve, though single readings scatter.
# Tested on: CP315
# Experiment: qHTS profiling for inhibitors of Plasmodium falciparum proliferation (AID 504749); note: nearly all actives have a fitted effect of over 60% in size;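 for activity, negative = inhibition: 0% = DMSO vehicle and full inhibition = artemisinin control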
# Settings: P. falciparum in erythrocytes, SYBR Green DNA, 72 h; at 28.7 µM (top of the series) unless noted
# In short: (§1)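 Parasite proliferation within erythrocytes, 72 h exposure. Endpoint: SYBR Green I fluorescence after overnight lysis at room temperature. Controls: 0.29 uM artemisinin, DMSO.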
# Potency is the fitted concentration of half-maximal effect.
row,SMILES,"activity, negative = inhibition"
1,O=[N+]([O-])c1cccc([N+](=O)[O-])c1,inactive: 0.504%
2,C/C1=C2N=C(/C=C3N=C(/C(C)=C4\[N-][C@@](C)([C@H]5N=C1[C@@](C)(CCC(=O)NC[C@H](C)OP(=O)([O-])O[C@@H]1[C@H](O)[C@H](n6cnc7cc(C)c(C)cc76)O[C@@H]1CO)[C@@H]5CC(N)=O)[C@](C)(CC(N)=O)[C@H]4CCC(N)=O)[C@@](C)(CC(N)=O)[C@@H]\3CCC(N)=O)C(C)(C)[C@@H]/2CCC(N)=O.[C-]#N.[Co+3],inactive: 1.49% [at 12.8 µM]
3,CC(C)OP(=O)(F)OC(C)C,inactive: -4.06%

# Tested on: CP325
# Experiment: as above
# Settings: P. falciparum in erythrocytes, SYBR Green DNA, 72 h; series mostly up to 28.7 µM
# In short: as §1
row,SMILES,Potency
1,O=[N+]([O-])c1cccc([N+](=O)[O-])c1,inactive
2,C/C1=C2N=C(/C=C3N=C(/C(C)=C4\[N-][C@@](C)([C@H]5N=C1[C@@](C)(CCC(=O)NC[C@H](C)OP(=O)([O-])O[C@@H]1[C@H](O)[C@H](n6cnc7cc(C)c(C)cc76)O[C@@H]1CO)[C@@H]5CC(N)=O)[C@](C)(CC(N)=O)[C@H]4CCC(N)=O)[C@@](C)(CC(N)=O)[C@@H]\3CCC(N)=O)C(C)(C)[C@@H]/2CCC(N)=O.[C-]#N.[Co+3],inactive
3,O=[N+]([O-])OCC(CO[N+](=O)[O-])(CO[N+](=O)[O-])CO[N+](=O)[O-],active: 10.7 µM
4,CC(C)OP(=O)(F)OC(C)C,inactive
